# Share of PSTVd loop 6 variants by leaf site

PSTVd intermediate strain, loop 6: wild type UGACCGCGAG, pool pattern UNNNCGNNNG; upper and lower strand joined, each 5' to 3', the first 5 letters being the upper strand, closing pairs included.

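Three N. benthamiana plants were inoculated with the whole mutant pool. Progeny were sequenced from the inoculated region (day 5), the margin of the inoculated leaf (day 10) and systemic leaves (day 12).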

Numbers give reads per thousand; 0 = not seen among the reads, higher = more abundant. Each site shows the three plants. "Pool" is the share in the plasmid pool used as inoculum, on the same scale. The inoculated region was read from the minus strand, the other sites from the plus strand.

sequence,pool,inoculated region,leaf margin,systemic leaves
UCCCCGGAAG,0.131,0.139 0.126 0.0738,0 0 0.0464,0 0 0
UCCCCGGACG,0.261,0.104 0.126 0.0369,0 0.101 0.0232,0 0 0
UCCCCGGAGG,0.209,0.0521 0.126 0.148,0 0 0,0 0 0
UCCCCGGAUG,0.327,0.174 0.0719 0.0553,0.0828 0 0,0 0 0
UCCCCGGCAG,0.288,0.122 0.0539 0.0553,0.0276 0.0252 0,0 0 0
UCCCCGGCCG,0.288,0.104 0.0719 0.0738,0 0 0,0 0 0
UCCCCGGCGG,0.222,0.0869 0.0719 0.0369,0 0.0252 0,0 0 0
UCCCCGGCUG,0.405,0.139 0.0359 0.0553,0 0 0,0 0 0
UCCCCGGGAG,0.327,0.156 0.0180 0.0369,0 0 0.0232,0 0 0
UCCCCGGGCG,0.157,0.122 0.108 0.0553,0 0 0,0 0 0
UCCCCGGGGG,0.157,0.122 0.0539 0.0922,0 0 0.0232,0 0 0
UCCCCGGGUG,0.288,0.191 0.0359 0.129,0 0.0757 0.0232,0 0 0
UCCCCGGUAG,0.275,0.174 0.0719 0.0553,0.0276 0 0.0696,0 0 0
UCCCCGGUCG,0.353,0.122 0.126 0.129,0 0 0.0464,0 0 0
UCCCCGGUGG,0.209,0.191 0.162 0.129,0 1.41 0,0 0 0
UCCCCGGUUG,0.458,0.0695 0.0180 0.0922,0 0.0504 0.0232,0 0 0
UCCCCGUAAG,0.144,0.122 0.0719 0.0553,0 0 0,0 0 0
UCCCCGUACG,0.301,0.0695 0.0719 0.0553,0.0552 0.0757 0,0 0 0
UCCCCGUAGG,0.379,0.174 0.108 0.0922,0 0 0.0464,0 0 0
UCCCCGUAUG,0.405,0.122 0.0898 0.0553,0.359 0.0252 0.0464,0 0.0202 0
UCCCCGUCAG,0.458,0.174 0.0359 0.0922,0 0.0757 0,0 0 0
UCCCCGUCCG,0.301,0.0695 0.144 0.111,0 0 0,0 0 0
UCCCCGUCGG,0.301,0.156 0.0898 0.0553,0.0276 0.0252 0,0 0 0.0410
UCCCCGUCUG,0.510,0.0869 0.0359 0.0184,0 0.0252 0.0232,0 0 0
UCCCCGUGAG,0.261,0.139 0.0898 0.111,0 0 0.0232,0 0 0
UCCCCGUGCG,0.261,0.0869 0.0539 0.129,0 0.0504 0,0 0 0
UCCCCGUGGG,0.248,0.0521 0.0539 0.0553,0.0276 0 0,0 0 0
UCCCCGUGUG,0.288,0.0869 0.108 0.0922,0.0276 0.0252 0,0 0 0
UCCCCGUUAG,0.431,0.104 0.0359 0.0922,0 0.0252 0.0232,0 0 0.0205
UCCCCGUUCG,0.261,0.104 0.0719 0.0922,0.0276 0 0,0 0 0
UCCCCGUUGG,0.340,0.0869 0.0898 0.0738,0 0.202 0.0232,0 0 0
UCCCCGUUUG,0.445,0.0521 0.0539 0.0553,0 0 0,0 0 0
UCCCCUCGAG,0.0392,0 0 0.0184,0 0 0,0 0 0
UCCCCUGGCC,0.0131,0 0 0,0 0 0,0 0 0
UCCCCUUACG,0.0131,0 0 0,0 0 0,0 0 0
UCCGCAGCGG,0.0131,0 0 0,0 0 0,0 0 0
UCCGCCUAUG,0.0131,0 0 0,0 0 0,0 0 0
UCCGCGAAAG,0.209,0.104 0.162 0.0922,0.0276 0 0,0 0 0
UCCGCGAACG,0.248,0.0521 0.0719 0.111,0 0 0,0 0 0
UCCGCGAAGG,0.105,0.0695 0.0898 0.129,0 0 0,0 0 0
UCCGCGAAUG,0.353,0.104 0.0719 0.0369,0.0552 0 0.0232,0 0 0
UCCGCGACAG,0.301,0.0695 0.0719 0.148,0.0276 0 0,0 0 0

The first 2 entries again:

{"sequence": "UCCCCGGAAG", "pool": "0.131", "inoculated region": "0.139 0.126 0.0738", "leaf margin": "0 0 0.0464", "systemic leaves": "0 0 0"}
{"sequence": "UCCCCGGACG", "pool": "0.261", "inoculated region": "0.104 0.126 0.0369", "leaf margin": "0 0.101 0.0232", "systemic leaves": "0 0 0"}

For reference, wild type rose from 20.7 per thousand in the pool to 195, 198, 203 (inoculated region), 629, 591, 734 (leaf margin) and 942, 870, 868 (systemic leaves). With 36,220-57,551 reads a sample, very low values are single reads. The authors trace changes outside the varied positions to PCR and sequencing errors or to mutation in the plant; presence does not show that a variant is infectious alone.

Data from the supplement of Wu et al. 2024, doi:10.1371/journal.ppat.1012142.